From ChEMBL document CHEMBL4376895, “Structure and Activity Studies of Disulfide-Deficient Analogues of αO-Conotoxin GeXIVA” (J Med Chem, 2020)

Protein sequences, listed by entry. Tags and fused reporters are not part of them. Residues count along the entry.
UniProt P36544, 23-502 limits assumed: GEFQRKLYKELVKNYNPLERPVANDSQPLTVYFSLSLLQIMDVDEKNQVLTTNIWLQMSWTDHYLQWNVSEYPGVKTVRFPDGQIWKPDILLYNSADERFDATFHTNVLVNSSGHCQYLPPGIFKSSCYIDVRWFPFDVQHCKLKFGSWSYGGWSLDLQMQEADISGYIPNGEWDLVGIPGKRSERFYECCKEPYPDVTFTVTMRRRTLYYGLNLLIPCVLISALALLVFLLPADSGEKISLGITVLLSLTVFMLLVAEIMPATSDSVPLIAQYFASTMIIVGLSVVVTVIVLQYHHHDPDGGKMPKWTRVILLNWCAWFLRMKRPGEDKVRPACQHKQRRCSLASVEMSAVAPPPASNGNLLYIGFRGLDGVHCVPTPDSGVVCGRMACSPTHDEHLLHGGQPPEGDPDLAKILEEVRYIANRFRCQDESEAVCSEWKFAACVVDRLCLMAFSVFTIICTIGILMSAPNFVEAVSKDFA
UniProt Q9NY46, whole entry, looked up: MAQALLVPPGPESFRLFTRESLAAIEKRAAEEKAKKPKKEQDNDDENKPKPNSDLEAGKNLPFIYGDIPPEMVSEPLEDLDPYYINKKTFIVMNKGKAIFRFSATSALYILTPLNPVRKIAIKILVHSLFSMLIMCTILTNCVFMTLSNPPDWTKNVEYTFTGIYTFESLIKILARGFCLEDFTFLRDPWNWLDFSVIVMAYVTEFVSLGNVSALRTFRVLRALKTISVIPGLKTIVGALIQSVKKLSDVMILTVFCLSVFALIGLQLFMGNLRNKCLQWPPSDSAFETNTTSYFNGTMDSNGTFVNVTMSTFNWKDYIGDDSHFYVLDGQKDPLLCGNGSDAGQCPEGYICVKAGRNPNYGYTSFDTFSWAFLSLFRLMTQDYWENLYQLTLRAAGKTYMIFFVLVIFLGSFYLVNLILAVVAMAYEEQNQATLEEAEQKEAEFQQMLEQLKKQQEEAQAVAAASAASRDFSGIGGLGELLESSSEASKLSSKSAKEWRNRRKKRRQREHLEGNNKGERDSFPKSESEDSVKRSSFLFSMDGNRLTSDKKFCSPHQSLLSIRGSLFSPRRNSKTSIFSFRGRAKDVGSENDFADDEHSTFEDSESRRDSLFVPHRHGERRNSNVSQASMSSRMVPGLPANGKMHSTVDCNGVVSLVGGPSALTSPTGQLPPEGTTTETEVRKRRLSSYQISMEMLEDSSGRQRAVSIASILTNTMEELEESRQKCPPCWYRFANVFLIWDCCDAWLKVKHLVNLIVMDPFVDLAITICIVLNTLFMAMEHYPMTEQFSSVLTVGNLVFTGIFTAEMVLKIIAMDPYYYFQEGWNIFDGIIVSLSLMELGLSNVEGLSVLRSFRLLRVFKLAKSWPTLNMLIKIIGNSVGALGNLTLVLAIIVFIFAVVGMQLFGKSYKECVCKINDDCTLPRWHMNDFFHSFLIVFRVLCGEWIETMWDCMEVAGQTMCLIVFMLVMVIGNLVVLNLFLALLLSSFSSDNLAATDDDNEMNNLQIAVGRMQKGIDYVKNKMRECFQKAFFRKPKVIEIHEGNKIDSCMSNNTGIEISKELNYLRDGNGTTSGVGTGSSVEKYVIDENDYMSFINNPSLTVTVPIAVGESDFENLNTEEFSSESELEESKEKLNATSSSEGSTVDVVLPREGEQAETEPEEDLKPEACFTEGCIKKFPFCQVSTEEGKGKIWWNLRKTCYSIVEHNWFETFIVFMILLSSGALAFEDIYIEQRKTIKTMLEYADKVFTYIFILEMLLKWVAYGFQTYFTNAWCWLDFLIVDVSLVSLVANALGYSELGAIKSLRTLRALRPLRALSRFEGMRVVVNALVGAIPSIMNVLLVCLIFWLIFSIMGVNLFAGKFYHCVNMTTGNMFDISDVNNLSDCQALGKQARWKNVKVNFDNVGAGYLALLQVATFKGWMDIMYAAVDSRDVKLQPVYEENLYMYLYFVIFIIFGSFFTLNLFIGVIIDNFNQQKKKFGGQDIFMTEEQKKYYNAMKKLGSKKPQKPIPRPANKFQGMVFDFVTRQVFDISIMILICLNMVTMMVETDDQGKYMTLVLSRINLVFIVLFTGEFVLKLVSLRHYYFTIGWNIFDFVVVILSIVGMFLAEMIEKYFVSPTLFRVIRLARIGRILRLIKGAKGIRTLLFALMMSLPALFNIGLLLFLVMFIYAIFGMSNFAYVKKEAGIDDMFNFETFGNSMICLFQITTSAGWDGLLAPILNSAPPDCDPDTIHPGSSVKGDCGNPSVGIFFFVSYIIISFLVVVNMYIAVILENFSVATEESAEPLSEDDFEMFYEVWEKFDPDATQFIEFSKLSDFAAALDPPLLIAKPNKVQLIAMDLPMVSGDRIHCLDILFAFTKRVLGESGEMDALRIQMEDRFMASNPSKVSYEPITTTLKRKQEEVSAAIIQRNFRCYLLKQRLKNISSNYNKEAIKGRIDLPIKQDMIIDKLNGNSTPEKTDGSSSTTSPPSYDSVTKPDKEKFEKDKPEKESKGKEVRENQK
UniProt P43144, 26-479 limits assumed: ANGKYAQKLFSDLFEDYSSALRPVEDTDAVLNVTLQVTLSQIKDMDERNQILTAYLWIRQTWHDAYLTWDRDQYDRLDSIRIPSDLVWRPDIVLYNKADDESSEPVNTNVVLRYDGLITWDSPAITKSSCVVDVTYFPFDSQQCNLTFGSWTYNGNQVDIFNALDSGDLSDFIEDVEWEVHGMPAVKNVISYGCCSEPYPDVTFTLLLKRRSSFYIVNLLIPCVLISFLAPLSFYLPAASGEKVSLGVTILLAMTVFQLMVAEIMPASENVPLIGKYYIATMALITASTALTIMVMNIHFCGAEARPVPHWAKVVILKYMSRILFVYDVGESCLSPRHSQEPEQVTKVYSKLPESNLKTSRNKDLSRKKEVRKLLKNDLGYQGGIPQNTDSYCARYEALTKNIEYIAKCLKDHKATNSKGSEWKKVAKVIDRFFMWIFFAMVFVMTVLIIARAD
UniProt Q9JLB5, 25-447 limits assumed: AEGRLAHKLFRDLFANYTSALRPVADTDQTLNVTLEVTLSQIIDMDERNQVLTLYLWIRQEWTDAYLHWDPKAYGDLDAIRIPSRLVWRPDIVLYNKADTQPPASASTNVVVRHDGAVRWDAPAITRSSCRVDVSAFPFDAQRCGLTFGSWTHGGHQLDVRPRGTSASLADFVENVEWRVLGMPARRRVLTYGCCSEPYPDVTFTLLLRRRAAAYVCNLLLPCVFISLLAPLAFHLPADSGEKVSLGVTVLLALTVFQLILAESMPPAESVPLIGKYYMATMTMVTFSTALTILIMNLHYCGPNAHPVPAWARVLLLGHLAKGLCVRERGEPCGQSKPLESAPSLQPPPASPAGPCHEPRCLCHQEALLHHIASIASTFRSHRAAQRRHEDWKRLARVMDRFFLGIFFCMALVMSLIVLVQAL
UniProt P04757, 26-499 limits assumed: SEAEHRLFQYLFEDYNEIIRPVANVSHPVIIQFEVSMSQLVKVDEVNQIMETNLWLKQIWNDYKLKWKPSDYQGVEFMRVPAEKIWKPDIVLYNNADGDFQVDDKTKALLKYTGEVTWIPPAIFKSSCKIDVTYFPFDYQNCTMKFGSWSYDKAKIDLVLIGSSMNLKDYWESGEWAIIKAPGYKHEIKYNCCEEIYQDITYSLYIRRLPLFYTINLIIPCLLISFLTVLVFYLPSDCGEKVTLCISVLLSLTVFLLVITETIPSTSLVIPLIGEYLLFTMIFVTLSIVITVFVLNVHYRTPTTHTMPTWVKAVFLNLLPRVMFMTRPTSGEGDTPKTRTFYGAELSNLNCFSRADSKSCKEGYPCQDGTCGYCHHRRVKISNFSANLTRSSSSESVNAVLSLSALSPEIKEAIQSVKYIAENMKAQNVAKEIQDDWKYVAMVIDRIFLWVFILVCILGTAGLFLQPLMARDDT
UniProt P12392, 21-495 limits assumed: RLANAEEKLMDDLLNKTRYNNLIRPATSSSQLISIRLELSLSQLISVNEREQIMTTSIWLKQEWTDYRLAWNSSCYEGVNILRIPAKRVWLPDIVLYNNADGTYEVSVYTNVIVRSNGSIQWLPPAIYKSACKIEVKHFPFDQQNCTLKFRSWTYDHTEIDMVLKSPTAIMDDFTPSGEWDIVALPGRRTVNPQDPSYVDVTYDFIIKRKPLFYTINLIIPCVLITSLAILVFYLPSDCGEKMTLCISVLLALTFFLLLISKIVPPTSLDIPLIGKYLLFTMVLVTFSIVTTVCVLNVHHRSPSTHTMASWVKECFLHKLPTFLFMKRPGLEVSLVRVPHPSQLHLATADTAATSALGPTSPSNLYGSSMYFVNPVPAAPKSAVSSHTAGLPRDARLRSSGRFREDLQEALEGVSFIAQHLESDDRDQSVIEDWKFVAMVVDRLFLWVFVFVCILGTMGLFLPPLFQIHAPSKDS
UniProt Q05941, 23-502 limits assumed: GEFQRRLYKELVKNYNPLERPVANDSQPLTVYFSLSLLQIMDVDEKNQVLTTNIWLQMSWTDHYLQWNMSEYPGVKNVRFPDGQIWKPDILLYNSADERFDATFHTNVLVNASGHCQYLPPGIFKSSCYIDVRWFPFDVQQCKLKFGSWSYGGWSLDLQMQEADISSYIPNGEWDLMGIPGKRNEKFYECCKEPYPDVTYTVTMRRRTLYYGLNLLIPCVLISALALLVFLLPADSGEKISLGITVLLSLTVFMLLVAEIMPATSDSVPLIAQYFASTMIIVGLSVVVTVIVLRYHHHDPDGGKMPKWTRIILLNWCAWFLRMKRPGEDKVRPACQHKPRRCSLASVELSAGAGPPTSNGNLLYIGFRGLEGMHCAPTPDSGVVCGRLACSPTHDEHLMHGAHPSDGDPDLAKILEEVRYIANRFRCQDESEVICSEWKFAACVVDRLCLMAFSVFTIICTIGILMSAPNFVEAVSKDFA
UniProt P12389, 28-511 limits assumed: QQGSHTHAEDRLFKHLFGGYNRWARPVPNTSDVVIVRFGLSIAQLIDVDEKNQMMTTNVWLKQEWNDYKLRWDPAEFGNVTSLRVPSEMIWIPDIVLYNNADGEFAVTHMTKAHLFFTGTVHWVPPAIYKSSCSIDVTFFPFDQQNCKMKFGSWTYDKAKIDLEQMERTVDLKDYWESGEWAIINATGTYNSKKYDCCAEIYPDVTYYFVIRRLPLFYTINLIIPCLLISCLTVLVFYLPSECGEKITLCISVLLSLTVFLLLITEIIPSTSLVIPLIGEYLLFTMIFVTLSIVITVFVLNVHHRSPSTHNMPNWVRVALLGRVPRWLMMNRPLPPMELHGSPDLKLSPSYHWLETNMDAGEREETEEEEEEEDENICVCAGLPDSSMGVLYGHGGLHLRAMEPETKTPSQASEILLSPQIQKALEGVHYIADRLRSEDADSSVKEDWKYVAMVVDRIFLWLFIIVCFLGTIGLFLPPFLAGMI
UniProt P12390, 25-500 limits assumed: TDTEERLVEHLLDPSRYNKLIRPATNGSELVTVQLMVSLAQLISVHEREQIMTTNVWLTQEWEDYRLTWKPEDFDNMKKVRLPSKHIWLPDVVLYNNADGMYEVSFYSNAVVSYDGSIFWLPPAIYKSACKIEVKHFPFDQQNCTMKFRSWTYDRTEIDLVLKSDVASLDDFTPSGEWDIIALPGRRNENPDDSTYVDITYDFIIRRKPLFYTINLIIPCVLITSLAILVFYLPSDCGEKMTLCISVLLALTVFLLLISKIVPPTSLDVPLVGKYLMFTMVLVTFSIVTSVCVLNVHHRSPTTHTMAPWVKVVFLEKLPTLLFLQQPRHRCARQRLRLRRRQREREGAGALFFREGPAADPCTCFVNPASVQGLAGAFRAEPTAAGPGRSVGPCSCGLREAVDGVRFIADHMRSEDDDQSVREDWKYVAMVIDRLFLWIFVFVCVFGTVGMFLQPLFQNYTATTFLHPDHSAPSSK
UniProt Q9UGM1, 23-479 limits assumed: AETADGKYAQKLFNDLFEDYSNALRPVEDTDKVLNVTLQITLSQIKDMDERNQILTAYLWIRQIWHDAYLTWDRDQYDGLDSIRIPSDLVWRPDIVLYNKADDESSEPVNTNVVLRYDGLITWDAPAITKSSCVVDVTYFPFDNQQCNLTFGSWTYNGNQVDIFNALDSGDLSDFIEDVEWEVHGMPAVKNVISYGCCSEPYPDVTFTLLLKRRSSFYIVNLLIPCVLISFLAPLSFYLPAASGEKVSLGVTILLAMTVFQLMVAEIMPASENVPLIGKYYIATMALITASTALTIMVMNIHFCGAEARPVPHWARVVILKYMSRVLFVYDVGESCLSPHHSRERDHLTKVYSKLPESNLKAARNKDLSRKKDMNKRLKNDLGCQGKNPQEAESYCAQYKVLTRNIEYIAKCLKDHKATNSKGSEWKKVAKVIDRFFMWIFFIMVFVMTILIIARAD

Experiments:
[1] = biological target: Neuronal acetylcholine receptor subunit alpha-7 (Homo sapiens, UniProt P36544)
[2] = biological target: Sodium channel protein type 3 subunit alpha (Homo sapiens, UniProt Q9NY46)
[3] = biological target: Nicotinic acetylcholine receptor alpha9/alpha10 (Rattus norvegicus, UniProt P43144+Q9JLB5)
[4] = biological target: Neuronal acetylcholine receptor; alpha3/beta4 (Rattus norvegicus, UniProt P04757+P12392)
[5] = biological target: Neuronal acetylcholine receptor subunit alpha-7 (Rattus norvegicus, UniProt Q05941)
[6] = biological target: Neuronal acetylcholine receptor; alpha2/beta2 (Rattus norvegicus, UniProt P12389+P12390)
[7] = biological target: Neuronal acetylcholine receptor; alpha9/alpha10 (Homo sapiens, UniProt Q9UGM1+Q9GZZ6)
[8] = biological target: Neuronal acetylcholine receptor; alpha3/beta2 (Rattus norvegicus, UniProt P04757+P12390)

SMILES: C[C@@H]1NC(=O)[C@@H]2CSSC[C@H](NC(=O)CN)C(=O)N[C@@H](CSSC[C@@H](C(N)=O)NC(=O)[C@H](CCCNC(=N)N)NC(=O)[C@H](Cc3c[nH]c4ccccc34)NC1=O)C(=O)N[C@@H](CO)C(=O)N[C@@H](CC(=O)O)C(=O)N1CCC[C@H]1C(=O)N[C@@H](CCCNC(=N)N)C(=O)N2
- IC50 [1]: 497 nM

SMILES: CC(C)[C@H](N)C(=O)NCC(=O)N[C@@H](CCC(=O)O)C(=O)N[C@@H](CCCNC(=N)N)C(=O)N[C@H]1CSSC[C@@H]2NC(=O)[C@H](Cc3c[nH]c4ccccc34)NC(=O)[C@H](CCCNC(=N)N)NC(=O)CNC(=O)[C@@H]3CSSC[C@@H](C(N)=O)NC(=O)[C@H](CSSC[C@H](NC1=O)C(=O)N[C@@H](CCCCN)C(=O)N[C@@H](CC(N)=O)C(=O)NCC(=O)N[C@@H](CCCCN)C(=O)N[C@@H](CCCNC(=N)N)C(=O)NCC(=O)N3)NC(=O)[C@H](CCCNC(=N)N)NC(=O)[C@H](CO)NC(=O)[C@H](Cc1cnc[nH]1)NC(=O)[C@H](CC(=O)O)NC(=O)[C@H](CCCNC(=N)N)NC2=O
- IC50 [2]: 200 nM

SMILES: CC(C)[C@H](N)C(=O)NCC(=O)N[C@@H](CCC(=O)O)C(=O)N[C@@H](CCCNC(=N)N)C(=O)N[C@H]1CSSC[C@@H]2NC(=O)[C@H](Cc3c[nH]c4ccccc34)NC(=O)[C@H](CCCNC(=N)N)NC(=O)CNC(=O)[C@H](CSSC[C@@H](C(N)=O)NC(=O)[C@H](C)NC(=O)[C@H](CCCNC(=N)N)NC(=O)[C@H](CO)NC(=O)[C@H](Cc3cnc[nH]3)NC(=O)[C@H](CC(=O)O)NC(=O)[C@H](CCCNC(=N)N)NC2=O)NC(=O)CNC(=O)[C@H](CCCNC(=N)N)NC(=O)[C@H](CCCCN)NC(=O)CNC(=O)[C@H](CC(N)=O)NC(=O)[C@H](CCCCN)NC(=O)[C@H](C)NC1=O
- IC50 [2]: 260 nM

SMILES: CC(C)[C@H](N)C(=O)NCC(=O)N[C@@H](CCC(=O)O)C(=O)N[C@@H](CCCNC(=N)N)C(=O)N[C@@H](C)C(=O)N[C@H]1CSSC[C@@H]2NC(=O)[C@H](CCCNC(=N)N)NC(=O)[C@H](CO)NC(=O)[C@H](Cc3cnc[nH]3)NC(=O)[C@H](CC(=O)O)NC(=O)[C@H](CCCNC(=N)N)NC(=O)[C@H](C)NC(=O)[C@H](Cc3c[nH]c4ccccc34)NC(=O)[C@H](CCCNC(=N)N)NC(=O)CNC(=O)[C@H](CSSC[C@@H](C(N)=O)NC2=O)NC(=O)CNC(=O)[C@H](CCCNC(=N)N)NC(=O)[C@H](CCCCN)NC(=O)CNC(=O)[C@H](CC(N)=O)NC(=O)[C@H](CCCCN)NC1=O
- IC50 [2]: 15700 nM

SMILES: CC(C)[C@H](N)C(=O)NCC(=O)N[C@@H](CCC(=O)O)C(=O)N[C@@H](CCCNC(=N)N)C(=O)N[C@H]1CSSC[C@@H]2NC(=O)[C@H](Cc3c[nH]c4ccccc34)NC(=O)[C@H](CCCNC(=N)N)NC(=O)CNC(=O)[C@H](C)NC(=O)CNC(=O)[C@H](CCCNC(=N)N)NC(=O)[C@H](CCCCN)NC(=O)CNC(=O)[C@H](CC(N)=O)NC(=O)[C@H](CCCCN)NC(=O)[C@H](CSSC[C@@H](C(=O)N[C@@H](C)C(N)=O)NC(=O)[C@H](CCCNC(=N)N)NC(=O)[C@H](CO)NC(=O)[C@H](Cc3cnc[nH]3)NC(=O)[C@H](CC(=O)O)NC(=O)[C@H](CCCNC(=N)N)NC2=O)NC1=O
- IC50 [2]: 110 nM

SMILES: CC[C@H](C)[C@H](NC(=O)[C@H](CCCNC(=N)N)NC(=O)[C@H](CCCNC(=N)N)NC(=O)[C@H](CO)NC(=O)[C@H](Cc1ccc(O)cc1)NC(=O)[C@H](CCCNC(=N)N)NC(=O)[C@H](CCCNC(=N)N)NC(=O)[C@H](CCCNC(=N)N)NC(=O)[C@H](CCCNC(=N)N)NC(=O)[C@H](CC(=O)O)NC(=O)[C@H](Cc1ccc(O)cc1)NC(=O)[C@@H]1CCCN1C(=O)[C@H](CO)NC(=O)[C@H](CCCNC(=N)N)NC(=O)[C@H](C)NC(=O)[C@H](Cc1ccc(O)cc1)NC(=O)[C@H](CCCNC(=N)N)NC(=O)CNC(=O)[C@H](CO)NC(=O)[C@H](CO)NC(=O)[C@H](CCCNC(=N)N)NC(=O)[C@H](C)NC(=O)[C@@H](N)[C@@H](C)O)C(=O)N[C@H](C(=O)N[C@@H](CC(=O)O)C(=O)N[C@@H](C)C(=O)N[C@@H](CO)C(=O)N[C@H](C(=O)O)C(C)C)[C@@H](C)O
- IC50 [3]: 6.1 nM
- IC50 [4]: 8350 nM
- IC50 [5]: 1270 nM
- IC50 [6]: 4360 nM
- IC50 [7]: 33 nM
- IC50 [8]: 2830 nM

SMILES: CC[C@H](C)[C@@H]1NC(=O)[C@H](CCCNC(=N)N)NC(=O)[C@H](CCCNC(=N)N)NC(=O)[C@@H](NC(=O)[C@H](Cc2ccc(O)cc2)NC(=O)[C@H](CCCNC(=N)N)NC(=O)[C@H](CCCNC(=N)N)NC(=O)[C@H](CCCNC(=N)N)NC(=O)[C@H](CCCNC(=N)N)NC(=O)[C@H](CC(=O)O)NC(=O)[C@H](Cc2ccc(O)cc2)NC(=O)[C@@H]2CCCN2C(=O)[C@H](CO)NC(=O)[C@H](CCCNC(=N)N)NC(=O)[C@H](CO)NC(=O)[C@H](Cc2ccc(O)cc2)NC(=O)[C@H](CCCNC(=N)N)NC(=O)CNC(=O)[C@H](CO)NC(=O)[C@H](CO)NC(=O)[C@H](CCCNC(=N)N)NC(=O)[C@H](CO)NC(=O)[C@@H](N)[C@@H](C)O)CSSC[C@@H](C(=O)N[C@H](C(=O)O)C(C)C)NC(=O)[C@H](C)NC(=O)[C@H](CC(=O)O)NC(=O)[C@H]([C@@H](C)O)NC1=O
- IC50 [3]: 12 nM
- IC50 [4]: 8410 nM
- IC50 [5]: 1520 nM
- IC50 [6]: 9060 nM
- IC50 [8]: 3800 nM
